Anti-infective test results gathered from many reports (values: NIAID ChemDB through PubChem).

All rows: enzyme or target tests

ICn is the concentration giving n% inhibition.

| compound | protein | strain | measure | method | dose | agent | value |
|---|---|---|---|---|---|---|---|
| O=C(Nc1cscc1-c1nc(C(=O)O)c(O)c(=O)[nH]1)NS(=O)(=O)c1cc(Cl)cc(Cl)c1 | HCV polymerase | - | IC50 | - | - | Hepatitis C virus | <25 µM |
| N=C(N)N1CCC(N(C(=O)c2ccc(Cl)cc2Cl)c2cc(-c3ccccc3)sc2C(=O)O)CC1 | NS3 ATPase | - | IC50 | - | - | Hepatitis C virus | <5 µM |
| COc1cc(C)c(S(=O)(=O)N(Cc2ccccc2Br)[C@@H](Cc2ccccc2)C(=O)O)c(C)c1C | RNA-dependent RNA polymerase | - | IC50 | - | - | Hepatitis C virus | 5–20 µM |
| COc1ccc(/C=C2/SC(=S)N(NS(=O)(=O)c3ccccc3)C2=O)cc1OC | NS5B polymerase | - | IC50 | - | - | Hepatitis C virus | >30 µM |
| O=C(Nc1ccc2cn[nH]c2c1)c1cc(N2CCN(CCO)CC2)c(F)cc1F | Reverse transcriptase | - | inhibition | - | 0.01 µg/mL | Hepatitis B virus | 39% |
| CCOc1ccc(NC(=O)Nc2cccc(-c3nc(C(=O)O)c(O)c(=O)[nH]3)c2)cc1 | HCV polymerase | - | IC50 | - | - | Hepatitis C virus | <100 µM |
| O=C(Nc1ccc2[nH]ncc2c1)c1cc(N2CCN(CCO)CC2)c(F)cc1F | Reverse transcriptase | - | IC50 | - | - | Hepatitis B virus | 0.1–1 µg/mL |
| O=C(O)c1sc(-c2ccccc2)cc1NS(=O)(=O)c1cc(Cl)sc1Cl | NS3 ATPase | - | IC50 | - | - | Hepatitis C virus | 5–20 µM |
| O=C(Nc1cccc(-c2nc(C(=O)O)c(O)c(=O)[nH]2)c1NS(=O)(=O)c1ccc2ccccc2c1)c1cccs1 | HCV polymerase | - | IC50 | - | - | Hepatitis C virus | <100 µM |
| O=C1c2ccc(O)cc2OC(c2ccc(O)c(O)c2)C1O | Replicase complex | J4 | inhibition | SYBR Green | 20 µM | Hepatitis C virus | 14.5% |
| NC(C(=O)Nc1ccsc1-c1nc(C(=O)O)c(O)c(=O)[nH]1)c1cccc2ccccc12 | HCV polymerase | - | IC50 | - | - | Hepatitis C virus | <25 µM |
| COc1cc(C)c(S(=O)(=O)N2CC(C)=CCC2C(=O)N(c2cc(-c3ccccc3)sc2C(=O)O)C(C)C)c(C)c1C | NS3 ATPase | - | IC50 | - | - | Hepatitis C virus | 5–20 µM |
| C=C[C@@H]1C[C@]1(NC(=O)[C@@H]1C[C@@H](Oc2nccc3ccc(Br)cc23)CN1C(C)=O)C(=O)NS(=O)(=O)C1CC1 | Nonstructural protein 3/4A | 1b D168V | IC50 | FRET | - | Hepatitis C virus | >3 µM |
| O=C(O)c1nc(-c2cc3ccccc3cn2)[nH]c(=O)c1O | HCV polymerase | - | IC50 | - | - | Hepatitis C virus | <100 µM |
| CCCC(=O)N(Cc1ccc(F)cc1F)c1cc(-c2ccccc2)sc1C(=O)O | NS3 ATPase | - | IC50 | - | - | Hepatitis C virus | <5 µM |
| O=C(O)[C@H](Cc1ccccc1)N(Cc1cccc(Br)c1)C(=O)c1ccc(Cl)cc1 | RNA-dependent RNA polymerase | - | IC50 | - | - | Hepatitis C virus | 5–20 µM |
| CC(C)[C@@H]1CC[C@@H](C)C[C@H]1OCC(=O)Nc1ccsc1-c1nc(C(=O)O)c(O)c(=O)[nH]1 | HCV polymerase | - | IC50 | - | - | Hepatitis C virus | <25 µM |
| Cc1ccccc1S(=O)(=O)Nc1cc(-c2cccc3cccnc23)sc1C(=O)O | NS3 ATPase | - | IC50 | - | - | Hepatitis C virus | >20 µM |
| O=C(Nc1ccsc1-c1nc(C(=O)O)c(O)c(=O)[nH]1)OCc1cccc2ccccc12 | HCV polymerase | - | IC50 | - | - | Hepatitis C virus | <25 µM |
| CC1CNCCC1C(=O)N(C(=O)c1ccc(Cl)cc1Cl)c1cc(-c2ccccc2)sc1C(=O)O.O=C(O)C(F)(F)F | NS3 ATPase | - | IC50 | - | - | Hepatitis C virus | <5 µM |
| CC1=NCCN1c1cc(C(=O)Nc2ccc3[nH]ncc3c2)c(F)cc1F | Nonstructural protein 5B | - | inhibition | - | 0.1 µg/mL | Hepatitis C virus | 0% |
| O=c1cc(-c2ccc(O)cc2)oc2cc(O)ccc12 | Replicase complex | J4 | inhibition | SYBR Green | 20 µM | Hepatitis C virus | 25.7% |
| Cc1cc(S(=O)(=O)Nc2cc(-c3ccccc3)sc2C(N)=O)c(C)cc1Cl | NS3 ATPase | - | IC50 | - | - | Hepatitis C virus | <5 µM |
| O=C(Nc1ccc2[nH]ncc2c1)c1cc(NCc2ccccn2)c(F)cc1F | Reverse transcriptase | - | inhibition | - | 1 µg/mL | Hepatitis B virus | 69% |
| O=C1/C(=C\c2ccc(C(F)(F)F)cc2)SC(=S)N1NS(=O)(=O)c1ccccc1 | NS5B polymerase | - | IC50 | - | - | Hepatitis C virus | ≤30 µM |
| O=c1c(O)c(-c2ccc(O)c(O)c2)oc2cc(O[C@@H]3O[C@H](CO)[C@@H](O)[C@H](O)[C@H]3O)c(O)c(O)c12 | Replicase complex | J4 | inhibition | SYBR Green | 20 µM | Hepatitis C virus | 42.5% |
| O=C(Nc1ccc2cn[nH]c2c1)c1cc(C2CCNCCN2)c(F)cc1F | Reverse transcriptase | - | inhibition | - | 0.1 µg/mL | Hepatitis B virus | 43% |
| O=C1/C(=C\c2ccc(F)c(Br)c2)SC(=S)N1NS(=O)(=O)c1ccccc1 | NS5B polymerase | - | IC50 | - | - | Hepatitis C virus | ≤30 µM |
| C[C@@H](NC(=O)Nc1ccsc1-c1nc(C(=O)O)c(O)c(=O)[nH]1)c1ccccc1 | HCV polymerase | - | IC50 | - | - | Hepatitis C virus | <25 µM |
| O=C(O)c1sc(-c2ccccc2)cc1NCc1ccc(Cl)cc1Cl | NS3 ATPase | - | IC50 | - | - | Hepatitis C virus | <5 µM |
| COc1cc(C)c(S(=O)(=O)N(Cc2ccc(-c3cc4ccccc4o3)cc2)[C@H](Cc2ccccc2)C(=O)O)c(C)c1C | RNA-dependent RNA polymerase | - | IC50 | - | - | Hepatitis C virus | <5 µM |
| O=c1cc(-c2ccc(O)c(O)c2)oc2ccccc12 | Replicase complex | J4 | inhibition | SYBR Green | 20 µM | Hepatitis C virus | 45.4% |
| CC(C)(C)OC(=O)N1CCC(N(C(=O)c2ccc(Cl)cc2Cl)c2cc(-c3ccccc3)sc2C(=O)O)C1 | NS3 ATPase | - | IC50 | - | - | Hepatitis C virus | <5 µM |
| O=C(CSc1ccccc1)Nc1ccsc1-c1nc(C(=O)O)c(O)c(=O)[nH]1 | HCV polymerase | - | IC50 | - | - | Hepatitis C virus | <25 µM |
| O=C(O)C(Cc1ccccc1)N(Cc1ccc(I)cc1)C(=O)c1ccc(Cl)cc1Cl | RNA-dependent RNA polymerase | - | IC50 | - | - | Hepatitis C virus | 5–20 µM |
| O=C1/C(=C/c2ccc(Cl)cc2)SC(=S)N1Cc1ccccc1 | NS5B polymerase | - | IC50 | - | - | Hepatitis C virus | >30 µM |
| O=C(Nc1ccc2[nH]ncc2c1)c1cc(N2CCNCC2)c(F)cc1F | Reverse transcriptase | - | inhibition | - | 1 µg/mL | Hepatitis B virus | 65% |
| COC(=O)NN1C(=O)/C(=C\c2ccc(Cl)c(Cl)c2)SC1=S | NS5B polymerase | - | IC50 | - | - | Hepatitis C virus | ≤30 µM |
| O=C(Nc1ccc2[nH]ncc2c1)c1cc(N2CCC(O)CC2)c(F)cc1F | Reverse transcriptase | - | inhibition | - | 1 µg/mL | Hepatitis B virus | 69% |

Inhibition is in % at the dose shown (toxicity tests: loss of growth or viability). Blank or dashed fields: not listed here. Two numbers with a dash give a range or band. Neighbouring rows are from separate reports.